Only a part is listed here, and it is no random draw. Active and inactive are the calls of the source.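 Rule for the calls: active = growth inhibition above about 58% in most replicates (limit read from the data, passing the limit was not always enough); inconclusive = exactly half the replicates above a set limit; inactive = most replicates below a set limit.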

The assay is described as follows: C. albicans growth inhibition with fluconazole, primary screen, CaCi-2 strain, Alamar Blue fluorescence (AID 1979).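 Note: all wells also contain fluconazole at 8 µg/ml as a sub-toxic cotreatment; 0% = median of DMSO wells and 100% = median of geldanamycin control wells.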 To be noted: C. albicans CaCi-2 (fluconazole-resistant clinical isolate) + fluconazole, 48 h, active compounds read high, concentration not given here.
As to `COc1ccc(C(=O)NCC2(N3CCCCC3)CCCCC2)cc1`, the growth inhibition is inactive: 2.5%. For the compound `COc1ccc(C(=O)NCC2(N3CCCCC3)CCCCC2)c(OC)c1OC`, the growth inhibition was inactive: -17.7%.

As for `CC(C)(C)OC(=O)N1CCC(N(C(=O)c2ccccc2)c2ccc(F)cc2)CC1`, the growth inhibition is inactive: -2.45%. For the compound `O=C(NCC1(N2CCCCC2)CCCCC1)c1ccc(=O)[nH]c1`, the growth inhibition is inactive: 2.16%. As for `O=C(NCC1(N2CCCCC2)CCCCC1)c1cccs1`, the growth inhibition was inactive: -4.89%.

In the case of `CSc1ccccc1C(=O)NCC1(N2CCCCC2)CCCCC1`, the growth inhibition was inactive: -14.5%. As to `O=C(NCC1(N2CCCCC2)CCCCC1)c1ccc(Cl)nc1`, the growth inhibition is inactive: 2.64%.

For the compound `Cc1cc(C)cc(N(C(=O)c2ccccc2)C2CCN(C(=O)OC(C)(C)C)CC2)c1`, the growth inhibition was inactive: -4.35%. As for `O=C(NCC1(N2CCOCC2)CCCCC1)c1cc2ccccc2o1`, the growth inhibition is inactive: -0.052%. Regarding `N#CC1(Nc2ccccc2)CCN(Cc2ccccc2)CC1`, the growth inhibition is inactive: 17.1%. In the case of `O=C(OC1CN2CCC1CC2)C1c2ccccc2Oc2ccccc21` (configuration not stated), the growth inhibition is inactive: -38.5%.

Consider `CCOC(=O)N1CCC(Nc2ccc(OC)cc2)CC1`, for which the growth inhibition is inactive: -19.6%. In the case of `CCOc1ccc(C)cc1CN(CCCl)CCCl`, the growth inhibition is inactive: -9.01%.

Take `O=C(NCC1(N2CCCCC2)CCCCC1)c1ccc(F)cc1`: the growth inhibition is inactive: -4.13%. `COc1ccc(NC2CCN(CCc3ccccc3)CC2)c(OC)c1`: the growth inhibition was inactive: -43.1%. For `CCOC(=O)N1CCC(Nc2ccc(F)cc2)CC1`, the growth inhibition was inactive: -38.8%. For `CCOC(=O)N1CCC(Nc2cccc(C)c2)CC1` the value was inactive: -6.8%; for `COc1cc(C(=O)NCC2(N(C)C)CCCCC2)ccc1OC(F)F`, inactive: -0.536%; for `Cc1ccc(OCC(C)C)c(CN(CCCl)CCCl)c1`, inactive: -19.7%.

As to `O=C(NCC1(N2CCCCC2)CCCCC1)c1ccc(OC(F)F)cc1`, the growth inhibition is inactive: 4.19%. For `CCN1CCC(Nc2ccc(Cl)cc2)CC1`, the growth inhibition was inactive: -2.18%. For `N#CC1(Nc2ccccc2)CCN(CCc2ccccc2)CC1`, the growth inhibition is inactive: -2.47%. On to `O=C(NCC1(N2CCCCC2)CCCCC1)c1cccc([N+](=O)[O-])c1`, for which the growth inhibition was inactive: -2.92%. In the case of `O=C(NCC1(N2CCCCC2)CCCCC1)c1cccc(C(F)(F)F)c1`, the growth inhibition was inactive: -7.92%. As for `COc1cc(C(=O)NCC2(N3CCCCC3)CCCCC2)ccc1OC(F)F`, the growth inhibition is inactive: 3.19%. For `O=C(NCC1(N2CCOCC2)CCCCC1)c1cc(=O)[nH]c2ccccc12` the value was inactive: -12.8%; for `CN1CCN(CCOC(=O)C(O)(c2ccccc2)c2ccccc2)CC1`, inactive: 0.996%; for `COc1ccc(NC2CCN(C(=O)OC(C)(C)C)CC2)cc1`, inactive: 1.16%. As to `CC(C)c1ccc(NC2CCN(C(=O)OC(C)(C)C)CC2)cc1`, the growth inhibition was inactive: -40.6%. As for `COc1ccc(CN(CCCl)CCCl)cc1Cl`, the growth inhibition is inactive: 5.23%. As for `CN(C)c1cccc(C(=O)NCC2(N3CCCCC3)CCCCC2)c1`, the growth inhibition is inactive: -3.42%.

As to `COc1cc(OC)c(C(=O)NCC2(N(C)C)CCCCC2)cc1OC`, the growth inhibition is inactive: -3.08%. For `CN1CCC(Nc2cccc(F)c2)CC1` the value was inactive: 34.8%. Consider `CCCOc1ccc(C(=O)NCC2(N(C)C)CCCCC2)cc1OC`, for which the growth inhibition was inactive: -6.75%. On to `COc1ccc(C(=O)NCC2(N3CCOCC3)CCCCC2)cc1OC`, for which the growth inhibition is inactive: 13.3%. For the compound `CCOC(=O)N1CCC(Nc2ccc(C)cc2)CC1`, the growth inhibition is inactive: -12.5%.

As for `N/C(=N\O)c1c(N)no[n+]1[O-]`, the growth inhibition is inactive: 0.263%. For the compound `CCc1cc(C(=O)NCC2(N3CCCCC3)CCCCC2)sc1C`, the growth inhibition was inactive: -1.24%. For `O=C(OC1CN2CCC1CC2)C1c2ccccc2C=Cc2ccccc21` (configuration not stated) the value was inactive: -2.12%. Regarding `N#Cc1ccc(C(=O)NCC2(N3CCCCC3)CCCCC2)cc1`, the growth inhibition was inactive: -10.5%. `CC(C)(C)OC(=O)N1CCC(N(C(=O)c2ccccc2)c2ccc(Cl)cc2)CC1`: the growth inhibition is inactive: 5.87%. For the compound `c1ccc(CN2CCC(Nc3ccccc3)CC2)cc1`, the growth inhibition was inactive: -0.439%. With `CCCN1CCC(Nc2cc(OC)cc(OC)c2)CC1`, the growth inhibition is inactive: 6.07%.

Take `COc1cc(OC)cc(C(=O)NCC2(N3CCCCC3)CCCCC2)c1`: the growth inhibition is inactive: -8.69%.

Regarding `Cc1ccc(C(=O)NCC2(N3CCCCC3)CCCCC2)o1`, the growth inhibition was inactive: -9.98%. Consider `CCN1CCC(Nc2cccc(F)c2)CC1`, for which the growth inhibition is inactive: -14.3%.

As to `CN(C)c1ccc(C(=O)NCC2(N3CCCCC3)CCCCC2)cc1`, the growth inhibition was inactive: 3.4%.

In the case of `CCOc1ncccc1C(=O)NCC1(N2CCOCC2)CCCCC1`, the growth inhibition was inactive: -4.87%. Consider `CN1CCC(Nc2ccc(F)c(Cl)c2)CC1`, for which the growth inhibition is inactive: -0.0204%. As to `CC(C)(C)OC(=O)N1CCC(Nc2ccccc2)CC1`, the growth inhibition is inactive: -9.95%. For the compound `O=C(O)C1(Nc2ccccc2)CCN(Cc2ccccc2)CC1`, the growth inhibition is inactive: -2.06%. For `CCCOc1ccc(C(=O)NCC2(N(C)C)CCCCC2)cc1`, the growth inhibition was inactive: 0.0428%. Regarding `COc1cc(OC)cc(C(=O)NCC2(N3CCOCC3)CCCCC2)c1`, the growth inhibition was inactive: -3.34%.

On to `COc1cccc(C(=O)N(c2cc(C)cc(C)c2)C2CCN(C(=O)OC(C)(C)C)CC2)c1`, for which the growth inhibition is inactive: -0.455%.

For the compound `CCC(CO)(C(=O)OC1CN2CCC1CC2)c1ccccc1` (configuration not stated), the growth inhibition is inactive: 5.5%. `CN1CCC(Nc2ccc(Cl)cc2)CC1`: the growth inhibition was inactive: -4.65%.

Turning to `CCCOc1ccc(C)cc1CN(CCCl)CCCl`, the growth inhibition is inactive: -6.98%.

The record behind these values is PubChem BioAssay AID1979 (Broad Institute, 2009).
